{"source": "paper PMC11377810", "about": "“A Gaussia luciferase reporter assay for the evaluation of coronavirus Nsp5/3CLpro activity” (Scientific Reports, 2024)", "molecular_target": "SARS-CoV-2 Nsp5 (Severe acute respiratory syndrome coronavirus 2, UniProt P0DTD1)", "data": [{"smiles": "COc1cccc2[nH]c(C(=O)N[C@@H](CC(C)C)C(=O)N[C@@H](C[C@@H]3CCNC3=O)C(=O)CO)cc12", "note": "[PF-00835231]", "values": [{"measurement": "effect on Nsp5 at non-cytotoxic concentrations", "result": "did not have a significant effect"}]}]}
